Measured values from several laboratories, pooled; numbers as filed in NIAID ChemDB.

Shared fields: tests in culture; species: Hepatitis C virus; endpoint: EC50

a–b is a range or a potency band.

smiles,strain,read by,cells,value
S=C(NCCCc1ccccc1)Nc1cccc(OCCCCCc2ccccc2)c1,,reporter gene / fluorescence,Ava5-EG(delta4AB)SEAP,0.001–1 µM
Nc1cc(Cn2c(C(=O)O)c(-c3ccccc3F)c3c4ccccc4ccc32)ccn1,,replicon,,1–10 µM
CCCC(=O)Nc1ccc2c(c1)Cc1cc(NC(N)=S)ccc1-2,,reporter gene / fluorescence,Ava5-EG(delta4AB)SEAP,0.001–1 µM
CNC(=O)c1c(-c2ccc(F)cc2)oc2cc(-c3ncn[nH]3)c(OC)cc12,,replicon,Huh7,<1 µM
COc1ccc(CC(=O)N/N=C/c2ccccc2OS(=O)(=O)c2ccc(C)cc2)cc1OC,,replicon,Huh7,<5 µM
CCOc1nc(N)nc2ccc(-c3ccc(NC(=O)C4CC4)cc3)nc12,,replicon,Huh7,<0.3 µM
NCc1ccc(Cn2c(C(=O)O)c(-c3ccc[nH]c3=O)c3c4occc4c(F)cc32)c(F)c1,,replicon,,<0.5 µM
CC(C)S(=O)(=O)NC(=O)c1ccc2c(C3CCCCC3)c3n(c2c1)C(O)c1cc(OCc2ccccc2)ccc1-3,,replicon,Huh7,0.01–1 µM
CNC(=O)c1c(-c2ccc(F)cc2)oc2ccc(OC(C)C)cc12,,replicon,Huh7,<30 µM
CN(C)CCNC(=O)C1=Cc2ccccc2-c2c(C3CCCCC3)c3ccc(C(=O)NC4(C(=O)Nc5ccc6c(c5)cc(C(=O)O)n6C)CCCC4)cc3n2C1,,replicon,Huh7,0.01–1 µM
Fc1ccc(-c2ccc3nc(NCc4cncs4)nc(NCC(F)(F)F)c3n2)cc1,,replicon,,<0.1 µM
O=C(O)/C=C/c1ccc(NC(=O)C2(NC(=O)c3ccc4c(C5CCCCC5)c5n(c4c3)CCNc3ccccc3-5)CCCC2)cc1,,replicon,Huh7,0.01–1 µM
Nc1ncnc2c1c(-c1ccoc1)cn2[C@@H]1O[C@H](CO)[C@@H](O)[C@H]1F,2a,replicon,HCV replicon,14.17 µM
CC(C)(CN1CCOCC1)NC(=O)c1ccc(-c2ccc3nc(N)nc(O[C@H]4CCOC4)c3n2)cc1,,replicon,Huh7,<0.3 µM
O=C(NS(=O)(=O)C1CC1)c1c(-c2ccc[nH]c2=O)c2c3occc3c(F)cc2n1Cc1cc2c(=O)[nH]cnc2cc1F,,replicon,,<0.5 µM
O=C(O)c1ccc2c(C3CCCCC3)c3n(c2c1)C[C@@H](O)[C@@H](O)c1ncccc1-3,,replicon,Huh7,1–10 µM
NC(=S)Nc1cccc(OCCCCCOc2ccccc2-c2ccc(F)cc2)c1,,reporter gene / fluorescence,Ava5-EG(delta4AB)SEAP,0.001–1 µM
NC(=O)COc1ccc2c(c1)S(=O)(=O)N=C(c1c(O)c3cc(F)ccc3n(CCC3CC3)c1=O)N2,1a 33781,replicon,,1.1 µM
CC(C)N(C)C(=O)C1=Cc2ccccc2-c2c(C3CCCCC3)c3ccc(C(=O)NS(=O)(=O)N(C)C)cc3n2C1,,replicon,Huh7,0.01–1 µM
Cc1ccccc1Cn1c(C(=O)O)c(-c2ccc[nH]c2=O)c2c3occc3ccc21,,replicon,,<0.5 µM
CCOc1nc(N)nc2ccc(-c3ccc(-c4nnc(C)o4)cc3)nc12,,replicon,Huh7,>1 µM
COc1cccc(CCC(=O)N/N=C/c2ccccc2OS(=O)(=O)c2ccc(C(F)(F)F)cc2)c1,,replicon,Huh7,>50 µM
Cc1cnc(CN2C(=O)C(c3ccc(NC(=O)[C@H]4CCCN4C(=O)OCc4ccccc4)cc3)SC2=Nc2cccc(F)c2)cn1,,replicon,Huh7,<0.1 µM
Nc1ncnc2c1c(-c1ccccc1)cn2[C@@H]1O[C@H](CO)[C@@H](O)[C@H]1F,2a,replicon,HCV replicon,20.73 µM
Cc1cccc(C(=O)N2c3cccc(O)c3NC3=C(C(=O)CC(C)(C)C3)C2c2ccc(OCc3ccccc3)c(F)c2)n1,1b,luciferase / reporter gene / replicon,,1.03 µM
COC(=O)c1ccc2c(C3CCCCC3)c3n(c2c1)CC(C(=O)OCc1ccccc1)=Cc1ccccc1-3,,replicon,Huh7,1–10 µM
CN(C)c1ccc(C(=O)N/N=C/c2ccccc2OS(=O)(=O)c2ccc(C(F)(F)F)cc2)cc1,,replicon,Huh7,5–50 µM
CCOc1cc2c(C(=O)NC)c(-c3ccc(F)cc3)oc2cc1N(CC)S(C)(=O)=O,,replicon,Huh7,<1 µM
O=C(Cc1ccc(I)cc1)N/N=C/c1ccccc1OS(=O)(=O)c1ccc(C(F)(F)F)cc1,,replicon,Huh7,<5 µM
O=c1c(-c2noc(Cc3ccc(Cl)cc3)n2)cn(Cc2ccc(C(F)(F)F)cc2F)c2c1CNCC2,1b,replicon,,<10 µM
COc1cccc(CC(=O)N/N=C/c2ccc(C)cc2OS(=O)(=O)c2ccc(C)cc2)c1,,replicon,Huh7,<5 µM
Nc1ncnc2c1c(-c1ccsc1)cn2[C@@H]1O[C@H](CO)[C@@H](O)[C@H]1F,2a,replicon,HCV replicon,13.21 µM
C[C@@H](NC(=O)OCc1ccccc1)C(=O)Nc1ccc(C2SC(=Nc3cccc(F)c3)N(Cc3ccoc3)C2=O)cc1,,replicon,Huh7,0.1–1 µM
O=C(Cc1ccccc1)N/N=C/c1ccccc1OS(=O)(=O)c1ccc(Br)cc1,,replicon,Huh7,<5 µM
CNC(=O)c1c(-c2ccc(F)cc2)oc2cc(N(C)S(C)(=O)=O)c(OCc3ccccc3C(=O)OC)cc12,,replicon,Huh7,<1 µM
Cc1nc(C(=O)N2c3cccc(O)c3NC3=C(C(=O)CC(C)(C)C3)C2c2ccc(OCc3ccccc3)cc2Cl)c(C)o1,1b,luciferase / reporter gene / replicon,,1.14 µM
O=C(Nc1ccc(C2SC(=Nc3ccc(F)cc3Cl)N(Cc3ccco3)C2=O)cc1)[C@H]1CCCN1C(=O)OCc1ccccc1,,replicon,Huh7,1–5 µM
COC(=O)c1ccc2c(C3CCCCC3)c3n(c2c1)CC(C(=O)O)=Cc1ccc(Cl)cc1-3,,replicon,Huh7,1–10 µM
CNC(=O)c1c(-c2ccc(F)cc2)oc2cc(-c3cn[nH]c3)c(OC(C)C)cc12,,replicon,Huh7,<10 µM
COc1ccc(CC(=O)N/N=C/c2ccccc2OS(=O)(=O)c2ccc(C(F)(F)F)cc2)cc1Br,,replicon,Huh7,<5 µM
CC(C)Cc1nc(-c2cn(CC3CCCCC3)c3cc(N4CCN(C)CC4)c(F)cc3c2=O)no1,1b,replicon,,>10 µM
COCCOc1nc(NCc2ccc(S(N)(=O)=O)cc2)nc2ccc(-c3ccc(F)cc3)nc12,,replicon,,<0.1 µM
C[C@@H]1CN(c2cc3c(cc2F)c(=O)c(-c2noc(C(C)(C)c4ccccc4)n2)cn3Cc2ccc(C(F)(F)F)cc2)C[C@H](C)N1,1b,replicon,,<0.5 µM
Nc1ncnc2c1c(-c1ccco1)cn2[C@H]1O[C@H](CO)[C@@H](O)C1(F)F,1a,replicon,HCV replicon,2.04 µM
NC(=O)c1ncc(Cn2c(C(=O)O)c(-c3ccc[nH]c3=O)c3c4occc4c(F)cc32)s1,,replicon,,0.5–1.5 µM
NS(=O)(=O)c1ccc(CNc2nc(NCC(F)(F)F)c3nc(-c4ccc(=O)[nH]c4)ccc3n2)cc1,,replicon,,<0.1 µM
O=C(Cc1cccc(Cl)c1)N/N=C/c1cccnc1OS(=O)(=O)c1ccc(C(F)(F)F)cc1,,replicon,Huh7,>50 µM
NC(=S)Nc1cccc(OCCCCCOc2cccc(-c3ccccc3)c2)c1,,reporter gene / fluorescence,Ava5-EG(delta4AB)SEAP,0.001–1 µM
CCOc1nc(NCc2ccc(F)cc2)nc2ccc(-c3cnc(N)s3)nc12,,replicon,,<0.1 µM
CN(C)CCN1C(=O)Cn2c(c(C3CCCCC3)c3ccc(C(=O)O)cc32)-c2ccccc21,,replicon,Huh7,0.01–1 µM
O=C(O)c1c(-c2ccc[nH]c2=O)c2c3occc3c(F)cc2n1Cc1cc2[nH]c(=O)[nH]c2cc1Cl,,replicon,,<0.5 µM
CC1(C)CC(=O)C2=C(C1)Nc1c(O)cccc1N(C(=O)CCC(=O)NCc1cccs1)C2c1ccc(OCc2ccccc2)cc1Cl,1b,luciferase / reporter gene / replicon,,10.33 µM
O=C(O)c1ccc2c(c1)c(=O)c(-c1noc(Cc3ccccc3)n1)cn2Cc1ccc(C(F)(F)F)cc1F,1b,replicon,,<2 µM
CC(C)(C)OC(=O)N1CC[C@@H](NS(=O)(=O)c2cc(-c3ccc4nc(NCc5ccc(S(N)(=O)=O)cc5)nc(NCC(F)(F)F)c4n3)ccc2F)C1,,replicon,,<0.1 µM
COc1cccc(CN2C(=O)C(c3ccc(NC(=O)C4CCCN4C(=O)OCc4ccccc4)cc3)SC2=Nc2cccc(F)c2)c1,,replicon,Huh7,0.1–1 µM
CS(=O)(=O)Nc1ccc(CNc2nc(NCC(F)(F)F)c3nc(-c4ccc(F)cc4)ccc3n2)cc1,,replicon,,<0.1 µM
COc1ccc(C(F)(F)F)cc1N=C1SC(c2ccc(NC(=O)[C@H]3CCCN3C(=O)OCc3ccccc3)cc2)C(=O)N1Cc1ccco1,,replicon,Huh7,0.1–1 µM
Nc1n[nH]c2ccc(Cn3c(C(=O)O)c(-c4ccc[nH]c4=O)c4c5occc5c(F)cc43)cc12,,replicon,,<0.5 µM
CNC(=O)c1c(-c2ccc(F)cc2)oc2ccc(OCc3ccc(C(=O)O)cc3)cc12,,replicon,Huh7,<30 µM
CC1CCCN1C(=O)CCC(=O)N1c2cccc(O)c2NC2=C(C(=O)CC(C)(C)C2)C1c1ccc(OCc2ccccc2)cc1Cl,1b,luciferase / reporter gene / replicon,,3.7 µM
NC(=S)Nc1cccc(OCCCCCOc2ccc(Cl)cc2)c1,,reporter gene / fluorescence,Ava5-EG(delta4AB)SEAP,0.001–1 µM
Nc1ncnc2c1c(-c1ccco1)cn2[C@@H]1O[C@H](CO)[C@@H](O)[C@H]1F,1a,replicon,HCV replicon,1.98 µM
CCOC(=O)c1csc(COc2cc3c(C(=O)NC)c(-c4ccc(F)cc4)oc3cc2N(C)S(C)(=O)=O)n1,,replicon,Huh7,<1 µM
CN1CCN(c2cc3c(cc2F)c(=O)c(-c2noc(Cc4ccccc4)n2)cn3Cc2ccc(C(F)(F)F)cc2F)CC1,1b,replicon,,<2 µM
O=C(N/N=C/c1ccccc1OS(=O)(=O)c1ccc(C(F)(F)F)cc1)c1ccccc1[N+](=O)[O-],,replicon,Huh7,<5 µM
CN1CCN(c2cc3c(cc2F)c(=O)c(-c2noc(Cc4ccc(F)cc4)n2)cn3Cc2c(F)cccc2Cl)CC1,1b,replicon,,>10 µM
CC(C)C(=O)N1c2cccc(O)c2NC2=C(C(=O)CC(C)(C)C2)C1/C=C/c1ccccc1[N+](=O)[O-],1b,luciferase / reporter gene / replicon,,25.64 µM

The first 5 rows once more:

smiles,strain,read by,cells,value
S=C(NCCCc1ccccc1)Nc1cccc(OCCCCCc2ccccc2)c1,,reporter gene / fluorescence,Ava5-EG(delta4AB)SEAP,0.001–1 µM
Nc1cc(Cn2c(C(=O)O)c(-c3ccccc3F)c3c4ccccc4ccc32)ccn1,,replicon,,1–10 µM
CCCC(=O)Nc1ccc2c(c1)Cc1cc(NC(N)=S)ccc1-2,,reporter gene / fluorescence,Ava5-EG(delta4AB)SEAP,0.001–1 µM
CNC(=O)c1c(-c2ccc(F)cc2)oc2cc(-c3ncn[nH]3)c(OC)cc12,,replicon,Huh7,<1 µM
COc1ccc(CC(=O)N/N=C/c2ccccc2OS(=O)(=O)c2ccc(C)cc2)cc1OC,,replicon,Huh7,<5 µM

Lines come from different laboratories, so protocols vary. Blank or dashed fields: not listed here. ECn: concentration that inhibits the pathogen or its effect by n%.